Measured values taken from patent US20150038408A1, “Polypeptides for treating and/or limiting influenza infection” (University of Washington, published 2015).

B1: HB36 [change] (designed binder)
chain: MSNAMDGQQLNRLLLEWIGAWDPFGLGKDAYDVEAEAVLQAVYETEDAFDLAMRIMWIYTFAFNRPIPFPHAQKLARRLLELKQAASSPLPLE
B2: HB36.2 ([change]) (designed binder)
chain: MSNAMDGQQLNRLLLEWIGAWDPFGLGKDAYDVEAEAVLQAVYETEDAFDLAMRIMWIYVFAFNRPIPFPHAQKLARRLLELKQAASSPLPLE
B3: HB80 [change] (designed binder)
chain: MASTRGSGRPWDFSENLAFELALAFTNKDTPDRWANVAQYVSGRTPEEVKKHYEILVEDIKYIESGKVPFPNYRTTGGNMKTDEKRFRNLKIRLE
B4: HB80 [change] (designed binder)
chain: MASTRGSGRPWDFSENLAFELALAFMNKDTPDRWAKVAQYVSGRTPEEVKKHYEILVEDIKYIESGKVPFPNYRTTGGNMKTDEKRFRNLKIRLE
B5: HB80 [change] (designed binder)
chain: MASTRGSGRPWDFSENLAFELALAFVNKDTPDRWANVAQYVSGRTPEEVKKHYEILVEDIKYIESGKVPFPNYRTTGGNMKTDEKRFRNLKIRLE

Target: A/South Carolina/1/1918 (H1N1) hemagglutinin ectodomain (Influenza A virus A/South …)

Row | Binder | fold improvement in affinity against HB36 [fold] | fold increase in apparent binding affinity against HB36 [fold] | fold improvement in affinity against HB80 [fold]
1 | B1 | > 10 | 25 | –
2 | B2 | > 10 | 25 | –
3 | B3 | – | – | > 10
4 | B4 | – | – | > 10
5 | B5 | – | – | > 10
